Assay results taken from patent US11737955B2, “Multi-functional micro and nanoparticles for use in root canal therapies” (THE GOVERNING COUNCIL OF THE UNIVERSITY OF TORONTO, priority 2012, dated 2023).

Legend:
[1] = tested on: dentin-collagen; test: Enzymatic degradation of crosslinked dentin-collagen (ninhydrin assay); design: species or system human; conditions: collagenase degradation, day 7; control 5 μmol/mL
[2] = tested on: dentin collagen; test: Tensile testing of crosslinked dentin-collagen; design: species or system bovine

| SMILES | amount of amino acid released [1] [µmol/mL] | reduction in toughness ([2]; crosslinked dentin-collagen vs control) [%] | increase in toughness compared to the control group ([2]; photodynamic crosslinking 540 nm, 20 J/cm^2) [%] |
| --- | --- | --- | --- |
| O=CCCCC=O [GD, glutaraldehyde] | 0.096 | ~38 | – |
| O=C1OC2(c3cc(I)c(O)c(I)c3Oc3c2cc(I)c(O)c3I)c2c(Cl)c(Cl)c(Cl)c(Cl)c21 [RB, Rose Bengal] | 0.25 | – | 196 |
